PubChem BioAssay AID504761 | Drosophila RNAi Screening Center – 2011
Test: 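Genome-wide fly cell screen for genes dengue virus requires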 (primary screen). Cells: D.Mel-2 cells from Drosophila. Knock-down reagent: long dsRNA against Drosophila genes. Treatment: infection with dengue virus type 2; dose and infection time not stated. Detection: 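Per well on two replicate plates, imaging gave the percent of cells positive for viral envelope protein, ranked by infection, and a nuclear count of cells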. Reading the numbers: infection score: higher = more virus-infected cells; cell count: higher = more cells in the well. Call rule: 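Very low infection ranking in both replicate wells (chance probability at most 0.065), then a retest showing infection dropped 1.5-fold or more at p below 0.05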. Calls: active = confirmed: knock-down lowers infection; inactive = not picked or not confirmed.
In all, the deposit lists about 22,000 reagents; below is an unselected part of those with a known target gene and a result. Of all reagents, 116 (0.52%) were called active. 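Calls depend on retest data that are not deposited; infection was ranked per plate without normalising between plates; the unit of the infection score is not given.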 The raw values are shown without normalisation. Unmarked entries are inactive. Reagents against one gene are numbered here. Names joined by + are all predicted targets of the reagent. Reagent sequences are not shown. Not stated in the record: the amount of reagent, the time to read-out.

{"predicted target": "sordd2 + sordd1", "reagent no.": 1, "infection score, replicate 1": 2.7, "infection score, replicate 2": 1.8, "cell count, replicate 1": 6619, "cell count, replicate 2": 6503}
{"predicted target": "sordd2 + sordd1", "reagent no.": 2, "infection score, replicate 1": 17.1, "infection score, replicate 2": 9.29, "cell count, replicate 1": 5695, "cell count, replicate 2": 6264}
{"predicted target": "clos", "reagent no.": 1, "infection score, replicate 1": 8.13, "infection score, replicate 2": 15.7, "cell count, replicate 1": 6923, "cell count, replicate 2": 5862}
{"predicted target": "clos", "reagent no.": 2, "infection score, replicate 1": 2.51, "infection score, replicate 2": 19, "cell count, replicate 1": 7328, "cell count, replicate 2": 6434}
{"predicted target": "clos", "reagent no.": 3, "infection score, replicate 1": 7.3, "infection score, replicate 2": 7.24, "cell count, replicate 1": 6655, "cell count, replicate 2": 6258}
{"predicted target": "clos", "reagent no.": 4, "infection score, replicate 1": 15.2, "infection score, replicate 2": 2.8, "cell count, replicate 1": 6085, "cell count, replicate 2": 6583}
{"predicted target": "clos", "reagent no.": 5, "infection score, replicate 1": 0.37, "infection score, replicate 2": 2.02, "cell count, replicate 1": 6181, "cell count, replicate 2": 7037}
{"predicted target": "Nmdmc", "reagent no.": 1, "infection score, replicate 2": 15.2, "cell count, replicate 1": 467, "cell count, replicate 2": 6079}
{"predicted target": "Nmdmc", "reagent no.": 2, "infection score, replicate 1": 3.52, "infection score, replicate 2": 4.4, "cell count, replicate 1": 5960, "cell count, replicate 2": 5881}
{"predicted target": "CG1773", "reagent no.": 1, "infection score, replicate 1": 3.88, "infection score, replicate 2": 6.65, "cell count, replicate 1": 5745, "cell count, replicate 2": 6060}
{"predicted target": "Ctps", "reagent no.": 1, "infection score, replicate 1": 1.46, "infection score, replicate 2": 0.98, "cell count, replicate 1": 6015, "cell count, replicate 2": 6142}
{"predicted target": "Ctps", "reagent no.": 2, "infection score, replicate 1": 3.45, "infection score, replicate 2": 4.99, "cell count, replicate 1": 6607, "cell count, replicate 2": 6507}
{"predicted target": "Ctps", "reagent no.": 3, "infection score, replicate 1": 0.55, "infection score, replicate 2": 0.88, "cell count, replicate 1": 6001, "cell count, replicate 2": 6491}
{"predicted target": "Ance-5", "reagent no.": 1, "infection score, replicate 1": 13.4, "infection score, replicate 2": 31.8, "cell count, replicate 1": 6338, "cell count, replicate 2": 5348}
{"predicted target": "Ance-5", "reagent no.": 2, "infection score, replicate 1": 6.05, "infection score, replicate 2": 22.1, "cell count, replicate 1": 7042, "cell count, replicate 2": 6535}
{"predicted target": "CG7879", "reagent no.": 1, "infection score, replicate 1": 10.3, "infection score, replicate 2": 0.21, "cell count, replicate 1": 5216, "cell count, replicate 2": 467}
{"predicted target": "CG7879", "reagent no.": 2, "infection score, replicate 1": 3.64, "infection score, replicate 2": 2.05, "cell count, replicate 1": 7083, "cell count, replicate 2": 6246}
{"predicted target": "Ir94a", "reagent no.": 1, "infection score, replicate 1": 4.9, "infection score, replicate 2": 7.34, "cell count, replicate 1": 5879, "cell count, replicate 2": 5685}
{"predicted target": "Ir94a", "reagent no.": 2, "infection score, replicate 1": 16.5, "infection score, replicate 2": 16.1, "cell count, replicate 1": 3306, "cell count, replicate 2": 2164}
{"predicted target": "CG31223", "reagent no.": 1, "infection score, replicate 1": 9.25, "infection score, replicate 2": 11.1, "cell count, replicate 1": 6066, "cell count, replicate 2": 6478}
{"predicted target": "unc-5", "reagent no.": 1, "infection score, replicate 1": 13.3, "infection score, replicate 2": 6.8, "cell count, replicate 1": 6518, "cell count, replicate 2": 6548}
{"predicted target": "unc-5", "reagent no.": 2, "infection score, replicate 1": 4.39, "infection score, replicate 2": 2.27, "cell count, replicate 1": 6212, "cell count, replicate 2": 6920}
{"predicted target": "unc-5", "reagent no.": 3, "infection score, replicate 1": 15.8, "infection score, replicate 2": 12.9, "cell count, replicate 1": 6143, "cell count, replicate 2": 6892}

2 of these entries, set out differently:
{"predicted target":"Ctps","reagent no.":1,"infection score, replicate 1":1.46,"infection score, replicate 2":0.98,"cell count, replicate 1":6015,"cell count, replicate 2":6142}
{"predicted target":"Ctps","reagent no.":2,"infection score, replicate 1":3.45,"infection score, replicate 2":4.99,"cell count, replicate 1":6607,"cell count, replicate 2":6507}
